Measured values from several laboratories, pooled; numbers as filed in NIAID ChemDB.

Shared fields: tests in culture; agent: Mycobacterium tuberculosis

Two numbers with a dash give a range or band.

SMILES | strain or isolate | tested at | endpoint | read by | changes | result
CCCCCCCCCCSc1ccnc(C(N)=S)c1 | H37Rv | - | MIC | - | - | 30 µM
CC(C)(C)C(=O)Nc1ccc(S(=O)(=O)Nc2nccs2)cc1 | H37Rv | - | MIC | - | - | 10 µg/mL
O=C(/C=C/c1ccc(C(F)(F)F)cc1)c1c(O)c2ccccc2oc1=O | INHR-MTB | - | MIC90 | agar | Isoniazid-resistant | 26.25 µg/mL
Cc1cc(C)nc(NS(=O)(=O)c2ccc(NC(=O)C(C)(C)C)cc2)n1 | H37Rv | - | MIC | - | - | 10 µg/mL
Cc1[nH]n(C(=O)c2sc3ccc(Cl)cc3c2Cl)c(=O)c1N=Nc1ccc(F)cc1 | - | 40 µg/mL | inhibition | agar diffusion / agar | - | 29%
O=C1OCC/C1=C1\NCCNC1=O | H37Rv | 12.5 µg/mL | inhibition | BACTEC | - | 9%
Cc1ccn2cc(-c3cc4cc(Cl)cc(Cl)c4oc3=O)nc2c1 | H37Rv | 6.25 µg/mL | inhibition | BACTEC | - | 20%
Cc1cccc(N=Nc2c(C)[nH]n(C(=O)c3sc4ccc(Cl)cc4c3Cl)c2=O)c1C | - | 40 µg/mL | inhibition | agar diffusion / agar | - | 18%
Nc1nnc2nc(C(C(=O)c3ccc(F)cc3)c3nc4nnc(N)n4[nH]c3=O)c(=O)[nH]n12 | H37Rv | 12.5 µg/mL | inhibition | BACTEC | - | 0%
CO[C@H]1/C=C/O[C@@]2(C)Oc3c(C)c(O)c4c(O)c(c(/C=N/N5CCN(C)CC5)c(O)c4c3C2=O)NC(=O)/C(C)=C\C=C\[C@H](C)[C@H](O)[C@@H](C)[C@@H](O)[C@@H](C)[C@H](OC(C)=O)[C@@H]1C | 10 strains | - | MIC50 | - | - | 0.06 µg/mL
CCc1cc(C(N)=S)ccn1 | 1 LAB strain (TH1314-RES) | - | MIC | - | - | 10 µg/mL
Cc1c(N2C[C@@H]3CCCN[C@@H]3C2)c(F)cn2c(=O)c(C(=O)O)cc(C3CC3)c12 | ATCC 35837 | - | MIC | - | - | 0.031 µg/mL
N/C(COc1cccc(Cl)c1)=N/NC(=O)c1ccncc1 | 16 isolates | - | MIC90 | - | - | 12.5 µg/mL
CCOC(=O)c1ccc(N=Nc2c(C)[nH]n(C(=O)c3sc4ccc(Cl)cc4c3Cl)c2=O)cc1 | - | 40 µg/mL | inhibition | agar diffusion / agar | - | 24%
COc1cc(Br)cc2cc(-c3cn4ccccc4n3)c(=O)oc12 | H37Rv | - | MIC | BACTEC | - | >6.25 µg/mL
CO[C@H]1/C=C/O[C@@]2(C)Oc3c(C)c(O)c4c(O)c(c(/C=N/N5CCN(C)CC5)c(O)c4c3C2=O)NC(=O)/C(C)=C\C=C\[C@H](C)[C@H](O)[C@@H](C)[C@@H](O)[C@@H](C)[C@H](OC(C)=O)[C@@H]1C | H37Rv | - | MIC | fluorescence | - | <0.008 µg/mL
C=CCSc1nnc(-n2c(-c3ccccc3)nc3ccc(Br)cc3c2=O)s1 | H37Rv | - | MIC | - | - | >40 µg/mL
CCCCCCCCS(=O)(=O)CC(=O)OC | H37Rv | - | MIC | - | - | 12.5 µg/mL
CN[C@@H]1[C@H](O[C@H]2[C@H](O[C@H]3[C@H](O)[C@@H](O)[C@H](N=C(N)N)[C@@H](O)[C@@H]3N=C(N)N)O[C@@H](C)[C@]2(O)C=O)O[C@@H](CO)[C@H](O)[C@H]1O | Isolate I | - | MIC | - | - | >2 µg/mL
C[C@@H]1CC[C@@]2(OC1)O[C@H]1C[C@H]3[C@@H]4CC=C5C[C@@H](O)CC[C@]5(C)[C@H]4CC[C@]3(C)[C@H]1[C@@H]2C | H37Rv | 128 µg/mL | inhibition | BACTEC | - | 62%
CC1(C)O[C@H]2OC(COCC(O)CNCCCCCCCCNC(O)COCC3O[C@@H]4OC(C)(C)O[C@@H]4[C@H]4OC(C)(C)O[C@@H]34)[C@@H]3OC(C)(C)O[C@@H]3[C@H]2O1 | H37Rv | - | MIC | - | - | >50 µg/mL
NC(=O)c1ccc(N=Nc2c(N)cc(N)cc2O)cc1 | H37Rv | - | MIC bound | BACTEC | - | >12.5 µg/mL
O=Cc1ccc(OCCCCCCCCCCCOc2ccc(C=O)cc2)cc1 | H37Rv | 1 µM | inhibition | - | - | 42–54.4%
C/C=C/C/C=C/CCC(=O)[C@H]1O[C@H]1C(N)=O | - | - | MIC | - | - | 3–6.25 µg/mL
O=C(Nc1cccc(C(F)(F)F)c1)c1cc(C(O)C2CCCCN2)c2cccc(C(F)(F)F)c2n1 | H37Rv | 6.25 µg/mL | inhibition | resazurin | - | 2%
Cc1ccc(C2Cc3nc4ccc(Cl)cc4c(-c4ccccc4)c3S2)cc1 | H37Rv | - | MIC | agar | - | 8.07 µM
O=c1c2cc(I)ccc2nc(-c2ccccc2)n1-c1nnc(SCC2CO2)s1 | H37Rv | - | MIC | - | - | >40 µg/mL
CC(C)CSc1ccnc(C(N)=S)c1 | H37Rv | - | MIC | - | - | 60 µM
O=c1c2ccccc2nc(-c2ccccc2)n1-c1nnc(SCC2CO2)s1 | H37Rv | - | MIC | - | - | >40 µg/mL
C=CCCC#CCCCCCCCCCCC(=O)O | - | - | MIC | - | - | 25 µg/mL
O=C(NC(=S)NCc1ccco1)c1csc([N+](=O)[O-])c1 | - | - | MIC | resazurin | - | 40 µg/mL
Nc1ccc2nc3cc(Nc4ccccc4)c(=Nc4ccccc4)cc-3n(-c3ccccc3)c2c1 | RMP-R | - | MIC | - | - | 0.4 µg/mL
CCCCCCCCCCCCCCCCSc1ccnc(C(N)=S)c1 | H37Rv | - | MIC | - | - | 2000 µM
O=C(CC1Sc2ccccc2NC1=O)NNc1cccc(Cl)c1Cl | H37Rv | - | MIC | BACTEC | - | ≥12.5 µg/mL
COc1cccc(C2CC(c3c(O)c4ccccc4oc3=O)=NN2c2ccccc2)c1O | H37Rv | - | MIC90 | agar | - | >6.25 µg/mL
CSc1ccc(C2OC(c3sc4ccc(Cl)cc4c3Cl)=NN2C(C)=O)cc1 | - | 40 µg/mL | inhibition | agar diffusion / agar | - | 5%
COc1cc(OC)nc(NC(=O)NS(=O)(=O)c2ncccc2C(=O)N(C)C)n1 | ATCC35801 | - | MIC | - | - | 125 µM
O=C1c2cccnc2-c2nccc3c2c1nc1ccccc13 | H37Rv | 6.25 µg/mL | inhibition | resazurin | - | 95%
Cc1ccc(Cl)cc1N=Nc1c(C)[nH]n(C(=O)c2sc3ccc(Cl)cc3c2Cl)c1=O | - | 40 µg/mL | inhibition | agar diffusion / agar | - | 28%
CC(C)=CCC1C(=O)C(CC=C(C)C)(CC=C(C)C)C(O)C(C(=O)C(C)C)C1O | Isolate J | - | MIC | - | - | 20.3 µg/mL
O=C(N/N=C/c1ccc2c(c1)OCO2)c1ccncc1 | H37Rv | - | MIC bound | resazurin | - | <6.25 µg/mL
O=Cc1cccc(/C=N/NC(=O)c2ccncc2)c1 | H37Rv delta-katG | - | MIC99 | BACTEC | INH resistant | >39.5 µM
O=C(Nc1ccc(C2=NCCN2)cc1)c1ccc(C(=O)Nc2ccc(C3=NCCN3)cc2)c(Br)c1 | H37Rv | - | MIC | BACTEC | - | 3.13 µg/mL
CC(=O)Nc1ccc(/C=N/NC(N)=S)cc1 | Isolate C drug-resistant | - | MIC | - | - | 30 µg/mL
CCCCCC(O)(CCCCC)CCCCCCCCC1=C(O)c2[nH]c(=O)ccc2C(=O)C1=O | H37Rv | 6.25 µg/mL | inhibition | resazurin | - | -5%
CO[C@H]1[C@@H](O)[C@H](n2ccc(=O)[nH]c2=O)O[C@@H]1[C@@H](O[C@H]1OC(C(=O)N[C@H]2CCC[C@@H](C)NC2=O)=C[C@H](O)[C@@H]1O)C(N)=O | KATO | - | MIC | - | - | 8 µg/mL
CC(=O)N=C1N(/C=C2\C(=O)Oc3ccccc3C2=O)C(=O)/C(=C/c2cccc(Cl)c2Cl)N1C | H37Rv | 12.5 µg/mL | inhibition | BACTEC | - | 86%
CCCCCCSc1ccnc(C(N)=S)c1 | H37Rv | - | MIC | - | - | 15 µM
Cc1[nH]n(C(=O)c2sc3ccc(Cl)cc3c2Cl)c(=O)c1N=Nc1ccccc1[N+](=O)[O-] | - | 40 µg/mL | inhibition | agar diffusion / agar | - | 53%
COc1cccc2cc(-c3cn4cc(Br)ccc4n3)c(=O)oc12 | H37Rv | - | MIC | BACTEC | - | >6.25 µg/mL
COc1nc(C)nc(NC(=O)NS(=O)(=O)c2ccccc2OCCCl)n1 | P4145 | - | MIC | - | - | 16 µM
CO[C@H]1/C=C/O[C@@]2(C)Oc3c(C)c(O)c4c(O)c(c5c(c4c3C2=O)NC2(CCN(CC(C)C)CC2)N=5)=NC(=O)/C(C)=C\C=C\[C@H](C)[C@H](O)[C@@H](C)[C@@H](O)[C@@H](C)[C@H](OC(C)=O)[C@@H]1C | - | - | MIC90 | - | - | 0.022 µg/mL
Clc1ccc2nc3c(c(-c4ccccc4)c2c1)SC(c1cccc2ccccc12)C3 | H37Rv | - | MIC | agar | - | 29.48 µM
COc1ccn2nc(C)c(C(=O)NCc3ccc(-c4ccc(OC(F)(F)F)cc4)c(C)c3)c2c1 | H37Rv | - | MIC | fluorescence | - | 0.013 µg/mL
CCCCCCCCCCP(=O)(O)CC(N)=O | H37Rv | - | MIC | - | - | 25 µg/mL
Cc1cc2oc(=O)c(C(=O)/C=C/c3ccc(C(F)(F)F)cc3)c(O)c2cc1C | H37Rv | - | MIC90 | agar | - | >6.25 µg/mL
C=CCSc1nnc(-n2c(-c3ccccc3)nc3ccccc3c2=O)s1 | H37Rv | - | MIC | - | - | >20 µg/mL
CC12C=C3C4(CCCC3(O1)c1ccccc12)OCCO4 | H37Rv | 12.5 µg/mL | inhibition | BACTEC | - | 4%
O=c1c2cc(Br)ccc2nc(-c2ccccc2)n1-c1n[nH]c(=S)s1 | H37Rv | - | MIC | - | - | 20 µg/mL
Clc1ccc2nc3c(c(-c4ccccc4)c2c1)SC(c1ccccc1Cl)C3 | H37Rv | - | MIC | agar | - | 3.82 µM
CCCCCCCCCS(=O)CC(=O)OC | H37Rv | - | MIC | - | - | 25 µg/mL
CCCSc1ccnc(C(N)=S)c1 | H37Rv | - | MIC | - | - | 125 µM
Cc1ccn2cc(-c3cc4ccccc4oc3=O)nc2c1 | H37Rv | - | MIC | BACTEC | - | >6.25 µg/mL
O=C(O)[C@H](CS)NC1CC(=O)N(Cc2ccccc2)C1=O | H37Rv | 12.8 µg/mL | inhibition | BACTEC | - | 20%
O=c1oc2ccccc2c(O)c1C1=NN(c2ccccc2)C(c2ccccc2-c2ccccn2)C1 | H37Rv | - | MIC90 | agar | - | >6.25 µg/mL
Nc1nnc(-c2ccncc2)s1 | H37Rv | - | MIC | - | - | 5 µg/mL
O=C1c2ccc([N+](=O)[O-])cc2NC(O)c2cccn21 | H37Rv | 12.5 µg/mL | inhibition | BACTEC | - | -1%
COc1cc([N+](=O)[O-])cc2cc(-c3cn4ccccc4n3)c(=O)oc12 | H37Rv | 6.25 µg/mL | inhibition | BACTEC | - | 0%
C[C@H]1C(=O)c2c(cc(O)c(C3OC(CO)C(O)C(O)C3O)c2O)O[C@@H]1c1ccc(O)c(O)c1 | H37Rv | - | MIC bound | BACTEC | - | >12.5 µg/mL
Clc1ccc(C2Cc3nc4ccccc4c(-c4ccccc4)c3S2)c(Cl)c1 | H37Rv | - | MIC | agar | - | 3.82 µM
Nc1cccc2nc(-c3cc4cccc([N+](=O)[O-])c4oc3=O)cn12 | H37Rv | - | MIC | BACTEC | - | >6.25 µg/mL
NC(=S)c1cc(SC2CCCCC2)ccn1 | H37Rv | - | MIC | - | - | 60 µM
Cc1ccccc1OC/C(N)=N\NC(=O)c1ccncc1 | ATCC 35828 (pyrazinamide-resistant) | - | MIC | - | - | 25 µg/mL
Cc1cc2oc(=O)c(C3=NN(c4ccccc4)C(c4ccc(C(F)(F)F)cc4)C3)c(O)c2cc1C | H37Rv | - | MIC90 | agar | - | >6.25 µg/mL
O=c1c2cc(Br)ccc2nc(-c2ccccc2)n1-c1nnc(SCC2CO2)s1 | H37Rv | - | MIC | - | - | >40 µg/mL
CCn1c2ccccc2nc2cc3c(cc21)c(Cl)c(=O)c1ccccc13 | H37Rv | 12.5 µg/mL | inhibition | BACTEC | - | 97%
CC(=O)N1N=C(c2sc3ccc(Cl)cc3c2Cl)OC1c1ccccc1[N+](=O)[O-] | - | 40 µg/mL | inhibition | agar diffusion / agar | - | 20%
COC(=O)C1=C(C)/C(=N/N)CC1 | H37Rv | 12.5 µg/mL | inhibition | BACTEC | - | -14%
Fc1ccc(C2Cc3nc4ccccc4c(-c4ccccc4)c3S2)cc1 | H37Rv | - | MIC | agar | - | 8.76 µM
C[N+]1([O-])[C@@H]2CC(OC(=O)[C@H](CO)c3ccccc3)C[C@H]1[C@@H]1O[C@@H]12 | H37Rv | 12.5 µg/mL | inhibition | BACTEC | - | 3%
CCCCCCCSc1ccnc(C(N)=S)c1 | H37Rv | - | MIC | - | - | 15 µM
NC(=O)c1ccc[n+](CC(=O)Nc2ccccc2)c1.[Cl-] | H37Rv | - | MIC bound | BACTEC | - | >12.5 µg/mL
O=[N+]([O-])c1cccc(C2Cc3nc4ccc(Cl)cc4c(-c4ccccc4)c3S2)c1 | H37Rv | - | MIC | agar | - | 1.86 µM

Repeating the final 8 entries:

SMILES | strain or isolate | tested at | endpoint | read by | changes | result
CCn1c2ccccc2nc2cc3c(cc21)c(Cl)c(=O)c1ccccc13 | H37Rv | 12.5 µg/mL | inhibition | BACTEC | - | 97%
CC(=O)N1N=C(c2sc3ccc(Cl)cc3c2Cl)OC1c1ccccc1[N+](=O)[O-] | - | 40 µg/mL | inhibition | agar diffusion / agar | - | 20%
COC(=O)C1=C(C)/C(=N/N)CC1 | H37Rv | 12.5 µg/mL | inhibition | BACTEC | - | -14%
Fc1ccc(C2Cc3nc4ccccc4c(-c4ccccc4)c3S2)cc1 | H37Rv | - | MIC | agar | - | 8.76 µM
C[N+]1([O-])[C@@H]2CC(OC(=O)[C@H](CO)c3ccccc3)C[C@H]1[C@@H]1O[C@@H]12 | H37Rv | 12.5 µg/mL | inhibition | BACTEC | - | 3%
CCCCCCCSc1ccnc(C(N)=S)c1 | H37Rv | - | MIC | - | - | 15 µM
NC(=O)c1ccc[n+](CC(=O)Nc2ccccc2)c1.[Cl-] | H37Rv | - | MIC bound | BACTEC | - | >12.5 µg/mL
O=[N+]([O-])c1cccc(C2Cc3nc4ccc(Cl)cc4c(-c4ccccc4)c3S2)c1 | H37Rv | - | MIC | agar | - | 1.86 µM

An empty or dashed field is not shown. A number after MIC or MFC names an inhibition level or a share of isolates. Conditions beyond the fields shown may differ between rows. MIC bound comes from a single tested concentration. Inhibition is in % at the dose shown (toxicity tests: loss of growth or viability).